Results of unrelated studies side by side (data: NIAID ChemDB).

All rows: growth or infection tests; agent: HIV-1; cell line: CEM + CEM-SS; endpoint: fold resistance

Fold resistance has wild type as its base. Blank or dashed fields: not listed here. Rows are shuffled and stem from different studies.

SMILES	strain or isolate	mutations	method	setting	value
CCc1c(C(=O)c2cc(C)cc(C)c2)n(CC2CC=CC2)c(=O)[nH]c1=O	NL4-3	RT-V108I	cytopathic effect / XTT	-	1.5
CCc1cc(NCc2nc3c(Cl)ccc(Cl)c3o2)c(=O)[nH]c1C	UC38-R(RT-Y181C	RT-Y181C	cytopathic effect / XTT	-	276
CCc1c(Sc2ccccn2)n(COCc2ccccc2)c(=O)[nH]c1=O	4xAZT(RT-D67N K70R T215Y K219Q)	RT-D67N K70R T215Y K219Q	cytopathic effect / XTT	-	0.444
CC(C)=CCN1Cc2cccc3[nH]c(=S)n(c23)C[C@@H]1C	RF	RT-Y181C	cytopathic effect / XTT	-	>3330
CNc1ccc(Cl)cc1S(=O)(=O)c1ccccc1[N+](=O)[O-]	Calanolide A-resistant (RT T139L)	RT-T139L	XTT	-	0.7
Cc1occc1C(=S)Nc1ccc(Cl)c(/C=N/OC(C)(C)C)c1	NL4-3 (RT V106I)	RT-V106I	cytopathic effect / XTT	-	33.75
Cc1ccnc2c1NC(=O)c1cccnc1N2C1CC1	4xAZT(RT-D67N K70R T215Y K219Q)	RT-D67N K70R T215Y K219Q	cytopathic effect / XTT	-	1
CC(C)(C)NC(=O)[C@H]1N(C(=O)[C@@H](O)[C@H](Cc2ccccc2)NC(=O)[C@H](CC(N)=O)NC(=O)COc2cccc(Nc3ccccc3)c2)CSC1(C)C	IIIB	PR-V32I L33F K45I F53L A71V I84V	-	-	1
CCc1c(Sc2ccccn2)n(COCc2ccccc2)c(=O)[nH]c1=O	UC82-R (RT-Y181C)	RT-Y181C	cytopathic effect / XTT	-	205
Cc1cn([C@H]2C[C@H](N=[N+]=[N-])[C@@H](CO)O2)c(=O)[nH]c1=O	IIIB(OC-R(I))	RT-L100I	cytopathic effect / XTT	-	0.7
Cc1cn([C@H]2C[C@H](N=[N+]=[N-])[C@@H](CO)O2)c(=O)[nH]c1=O	NL4-3	RT-Y188C	XTT	-	6
CC1=C(C(=O)Nc2ccc(Cl)c(C(=O)OC(C)C)c2)SCCO1	IIIB(DPS-R(III))	RT-Y181C	cytopathic effect / XTT	-	11
CC(C)(C)NC(=O)[C@@H]1CN(Cc2cccnc2)CCN1C[C@@H](O)C[C@@H](Cc1ccccc1)C(=O)N[C@H]1c2ccccc2C[C@H]1O	Saquinavir-resistant (PR G48V L90M)	PR-G48V L90M	RT activity	10 d	3
CC1=C(C(=O)Nc2ccc(Cl)c(C(=O)OC(C)C)c2)SCCO1	UC38-R(RT-Y181C	RT-Y181C	cytopathic effect / XTT	-	6
Cc1cn([C@H]2C[C@H](N=[N+]=[N-])[C@@H](CO)O2)c(=O)[nH]c1=O	NL4-3	RT-D67N K70R T215Y K219Q	-	-	19.6
CCc1c(Sc2ccccn2)n(COCc2ccccc2)c(=O)[nH]c1=O	IIIB(A17(III))	RT-K103N Y181C	cytopathic effect / XTT	-	>333
CCCCCCCCCCCCSCC(COP(=O)([O-])OCC[N+](C)(C)C)OCCCCCCCCC(=O)OCC(=O)OC[C@H]1O[C@@H](n2cc(C)c(=O)[nH]c2=O)C[C@@H]1N=[N+]=[N-]	Clinical isolate G910-6 post-AZT	RT mutant at codon 215	plaque count	-	3
CC(C)=CCN1Cc2cccc3[nH]c(=S)n(c23)C[C@@H]1C	UC38-R(RT-Y181C	RT-Y181C	cytopathic effect / XTT	-	1.8
Cc1cn([C@H]2C[C@H](N=[N+]=[N-])[C@@H](CO)O2)c(=O)[nH]c1=O	N119 nevirapine-resistant (RT Y181C)	RT-Y181C	RT activity	-	2
c1ccc2c(c1)sc1nccn12	IIIB(THZ-R(I))	RT-V108I	cytopathic effect / XTT	-	>200
Cc1ccnc2c1NC(=O)c1cccnc1N2C1CC1	NL4-3 1 (RT K101E)	RT-K101E	XTT	-	15
Nc1ccn([C@@H]2CC[C@H](CO)O2)c(=O)n1	N119 nevirapine-resistant (RT Y181C)	RT-Y181C	RT activity	-	3.38
Cc1c(Sc2ccccc2)n(COCCO)c(=O)[nH]c1=O	UC38-R(RT-Y181C	RT-Y181C	cytopathic effect / XTT	-	57